Experimental data: PubChem BioAssay AID624099 (ICCB-Longwood, 2012)
The deposit covers about 21,000 reagents; this is an unselected part. 497 of all reagents (2.4%) were called active. 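Higher z means weaker E2 silencing; only reporter increases were scored, and knock-downs that hurt cell survival may mask genuine repressor factors.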 The numbers tell different reagents against one gene apart.

Assay: 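Host factors E2 relies on to silence an HPV18 LCR reporter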 (primary screen)
Cell system: human C33A cervical carcinoma cells (HPV-negative) stably expressing BPV1 E2 and an HPV18 LCR luciferase reporter
Reagent: siRNA pool against human genes, 40 nM
Timing: 72 h
Measurement: 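Per-well luciferase luminescence, z-scored on each plate against the plate mean and SD with control wells left out, then averaged across three replicate plates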
Direction: mean z-score and z-score: higher = stronger reporter signal, weaker E2 silencing
Rule for the call: 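Mean z ≥ 2 together with z ≥ 2 in two or more of the three replicates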

| gene knocked down | reagent no. | mean z-score | z-score, replicate A | z-score, replicate B | z-score, replicate C | call |
| --- | --- | --- | --- | --- | --- | --- |
| EXOC3L2 | 1 | -1.89 | -1.92 | -1.99 | -1.75 | inactive |
| YPEL3-DT | 1 | 0.69 | 0.54 | 0.95 | 0.58 | inactive |
| CCDC38 | 1 | 0.98 | 0.6 | 0.88 | 1.45 | inactive |
| CHCHD2 | 1 | -0.3 | 0.13 | -0.26 | -0.78 | inactive |
| NACA3P | 1 | -0.8 | -1.03 | -1.12 | -0.25 | inactive |
| SUCLG2 | 1 | -0.64 | -0.6 | -0.52 | -0.8 | inactive |
| RPL26P32 | 1 | -0.98 | -0.97 | -0.7 | -1.27 | inactive |
| BCR | 1 | 0.03 | -0.15 | 0.3 | -0.06 | inactive |
| EFCAB14 | 1 | -0.93 | -0.34 | -0.87 | -1.56 | inactive |
| PSD2 | 1 | -0.19 | -0.38 | 0.03 | -0.22 | inactive |
| ADA | 1 | -1.12 | -0.77 | -1.17 | -1.43 | inactive |
| KNOP1 | 1 | 0.41 | 0.24 | 0.56 | 0.44 | inactive |
| UNC13C | 1 | 0.74 | 0.06 | 1.11 | 1.04 | inactive |
| DDX23 | 1 | -0.04 | 0.14 | -0.23 | -0.04 | inactive |
| ZNF558 | 1 | 1.07 | 1.18 | 1.06 | 0.96 | inactive |
| ZNF45 | 1 | -0.15 | -0.38 | -0.11 | 0.04 | inactive |
| ZNF496 | 1 | -1.56 | -1.81 | -1.61 | -1.27 | inactive |
| SFT2D1 | 1 | 0.14 | 0.33 | 0.43 | -0.33 | inactive |
| CDKL3 | 1 | 0.05 | 0.04 | -0.18 | 0.3 | inactive |
| BTN2A3P | 1 | 1.65 | 1.81 | 1.51 | 1.61 | inactive |
| BCL7B | 1 | 1.08 | 1.24 | 0.74 | 1.25 | inactive |
| MTCL1 | 1 | -0.65 | -0.71 | -0.78 | -0.45 | inactive |
| USP7P1 | 1 | 1.07 | 1.25 | 1.01 | 0.94 | inactive |
| OXGR1 | 1 | -1.73 | -1.82 | -1.74 | -1.64 | inactive |
| B3GALT1 | 1 | -1.08 | -1.22 | -0.97 | -1.06 | inactive |
| ZNF593 | 1 | -0.36 | -0.21 | 0 | -0.87 | inactive |
| FOSB | 1 | -0.78 | -0.31 | -1.14 | -0.9 | inactive |
| H2AC12 | 1 | -0.31 | -0.26 | -0.32 | -0.35 | inactive |
| MERTK | 1 | 0.8 | 0.89 | 0.63 | 0.88 | inactive |
| ARR3 | 1 | 0.47 | 0.52 | 0.33 | 0.57 | inactive |
| ZNF343 | 1 | 1.18 | 0.87 | 1.5 | 1.15 | inactive |
| CFAP70 | 1 | 0.63 | 0.7 | 0.52 | 0.68 | inactive |
| TPCN1 | 1 | 1.67 | 1.77 | 1.5 | 1.75 | inactive |
| NOPCHAP1 | 1 | 0.45 | 0.17 | 0.72 | 0.45 | inactive |
| LOC400590 (retired record) | 1 | 1.37 | 1.87 | 0.65 | 1.6 | inactive |
| RANBP3 | 1 | -1.18 | -1.47 | -0.76 | -1.32 | inactive |
| ZMYND19 | 1 | 0.78 | 0.75 | 0.87 | 0.71 | inactive |
| PCGF5 | 1 | -0.51 | -0.57 | -0.48 | -0.49 | inactive |
| NAPRT | 1 | 2.49 | 2.55 | 2.11 | 2.82 | active |
| PALM2AKAP2 | 1 | 0.64 | 0.39 | 1.08 | 0.45 | inactive |
| PALM2AKAP2 | 2 | 1.28 | 0.8 | 1.61 | 1.43 | inactive |
| IFNA17 | 1 | 0.12 | 0.23 | 0.12 | 0 | inactive |
| NME3 | 1 | -1.33 | -1.53 | -1.45 | -1.02 | inactive |
| ARSB | 1 | 0.26 | 0.05 | 0.41 | 0.31 | inactive |
| SBSN | 1 | 0.39 | 0.39 | 0.16 | 0.62 | inactive |
| C4orf36 | 1 | -0.1 | -0.06 | 0.05 | -0.27 | inactive |
| NCOA5 | 1 | 1.01 | 0.98 | 1.43 | 0.61 | inactive |
| HLA-DQB2 | 1 | -0.26 | -0.25 | -0.37 | -0.15 | inactive |
| MAT1A | 1 | 0.6 | 0.39 | 0.54 | 0.86 | inactive |
| RGS12 | 1 | -0.34 | 0.08 | -0.56 | -0.54 | inactive |
| NDUFAF2 | 1 | -0.17 | -0.36 | 0.28 | -0.42 | inactive |
| TSPO | 1 | -0.18 | -0.42 | -0.04 | -0.08 | inactive |
| PPIP5K2 | 1 | -1.01 | -0.45 | -0.71 | -1.86 | inactive |
| CABP7 | 1 | 0.3 | 0.05 | 0.34 | 0.52 | inactive |
| ROPN1L | 1 | 1.43 | 1.63 | 1.42 | 1.25 | inactive |
| TGFB1 | 1 | -1.45 | -1.35 | -1.56 | -1.45 | inactive |
| SMR3B | 1 | -0.29 | -0.28 | -0.07 | -0.51 | inactive |
| INKA2 | 1 | -2.05 | -1.68 | -2.38 | -2.08 | inactive |
| SLC61A1 | 1 | -1.66 | -1.8 | -1.56 | -1.63 | inactive |
| PRAMEF2 | 1 | 0.75 | 0.84 | 0.61 | 0.8 | inactive |
| DERL2 | 1 | -0.26 | -0.31 | -0.13 | -0.34 | inactive |
| KLHL13 | 1 | 1.51 | 1.19 | 1.7 | 1.65 | inactive |
| HYCC1 | 1 | -0.02 | 0.05 | -0.04 | -0.06 | inactive |
| ADGRL2 | 1 | 1.71 | 2.03 | 1.56 | 1.54 | inactive |
| PDCD4 | 1 | -0.36 | -0.15 | -0.53 | -0.4 | inactive |
| ZNF681 | 1 | 0.4 | 0.4 | 0.77 | 0.02 | inactive |
| NBPF11 | 1 | -0.67 | -0.53 | -0.94 | -0.56 | inactive |
| SLC17A9 | 1 | 1.54 | 1.64 | 1.53 | 1.44 | inactive |
| BICC1 | 1 | -0.44 | -0.81 | -0.3 | -0.22 | inactive |
| SLC35F2 | 1 | 1.62 | 1.51 | 1.46 | 1.87 | inactive |
| PREX1 | 1 | -1.16 | -0.61 | -1.36 | -1.53 | inactive |
| AP1M1 | 1 | -0.62 | -0.43 | -0.71 | -0.72 | inactive |
| TMPRSS9 | 1 | -0.18 | 0.16 | -0.46 | -0.23 | inactive |

Hits, among the entries above:
| gene knocked down | reagent no. | mean z-score | z-score, replicate A | z-score, replicate B | z-score, replicate C | call |
| --- | --- | --- | --- | --- | --- | --- |
| NAPRT | 1 | 2.49 | 2.55 | 2.11 | 2.82 | active |
